## Sequence variants of PSTVd loop 15 after infection

The pool varies loop 15 of the PSTVd intermediate strain in the pattern GGAAACCGNNNNNNC; wild type is GGAAACCGCUACUAC (upper and lower strand joined, each 5' to 3', the first 7 letters being the upper strand, closing pairs included).

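A pool of all variants was put on leaves of three Nicotiana benthamiana plants. Progeny were sequenced from the inoculated region (day 5), the margin of the inoculated leaf (day 10) and systemic leaves (day 12).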

Values are reads per thousand in the sample; higher means more abundant, 0 means not found. Each value is the mean of three plants. "Pool" is the share in the plasmid pool used as inoculum, on the same scale. The inoculated region was read from the minus strand, the other sites from the plus strand. IR is the inoculated region, LM the leaf margin, Sys the systemic leaves. Samples held 43,870 to 66,106 reads, so the smallest values rest on one or two reads. Wild type was 33.9 per thousand in the pool and the most common sequence in every sample (inoculated region 202, 200, 159; leaf margin 724, 746, 710; systemic leaves 856, 883, 880). The authors trace changes outside the varied positions to PCR and sequencing errors or to mutation in the plant; presence does not show that a variant is infectious alone.

With GGAAACCGGCUUGCC (pool 0.240) the assay gave IR 0.191; LM 0.00668; Sys 0.00537.
With GGAAACCGGUUUCAC (pool 0.240) the assay gave IR 0.106; LM 0; Sys 0.
With GGAAACCGUCCCCGC (pool 0.224) the assay gave IR 0.0983; LM 0.0195; Sys 0.
With GGAAACCGCGUUUUC (pool 0.224) the assay gave IR 0.130; LM 0.0134; Sys 0.
With GGAAACCGACUACAC (pool 0.224) the assay gave IR 0.0963; LM 0.0223; Sys 0.
With GGAAACCGCUCUACC (pool 0.288) the assay gave IR 0.0891; LM 0.0121; Sys 0.
With GGAAACCGAAAUCUC (pool 0.272) the assay gave IR 0.166; LM 0.00742; Sys 0.
With GGAAACCGCCGAUUC (pool 0.160) the assay gave IR 0.345; LM 0.117; Sys 0.0386.
With GGAAACCGAGCAAUC (pool 0.240) the assay gave IR 0.0741; LM 0.0336; Sys 0.
With GGAAACCGGUAACAC (pool 0.224) the assay gave IR 0.292; LM 0.146; Sys 0.0411.
With GGAAACCGUCAAAAC (pool 0.288) the assay gave IR 0.345; LM 0.136; Sys 0.0569.
With GGAAACCGACACUCC (pool 0.192) the assay gave IR 0.0670; LM 0; Sys 0.
With GGAAACCGAAAUUAC (pool 0.224) the assay gave IR 1.08; LM 0.148; Sys 0.0915.
With GGAAACCGCGAUUCC (pool 0.256) the assay gave IR 0.340; LM 0.148; Sys 0.0183.
With GGAAACCGCAGCCUC (pool 0.128) the assay gave IR 0.121; LM 0.0128; Sys 0.
With GGAAACCGGGGUUCC (pool 0.288) the assay gave IR 0.0613; LM 0.00668; Sys 0.
With GGAAACCGAGCGUGC (pool 0.288) the assay gave IR 0.279; LM 0.106; Sys 0.0609.
With GGAAACCGAGGUCUC (pool 0.272) the assay gave IR 0.184; LM 0.0141; Sys 0.0107.
With GGAAACCGUUGGUAC (pool 0.192) the assay gave IR 0.298; LM 0.146; Sys 0.0720.
With GGAAACCGGUCGCGC (pool 0.240) the assay gave IR 0.122; LM 0.0141; Sys 0.00504.
With GGAAACCGUUUGAAC (pool 0.144) the assay gave IR 0.327; LM 0.0973; Sys 0.0944.
With GGAAACCGAGAUGAC (pool 0.176) the assay gave IR 0.105; LM 0.00668; Sys 0.
With GGAAACCGACCGGUC (pool 0.272) the assay gave IR 0.370; LM 0.0985; Sys 0.0568.
With GGAAACCGGAUUCAC (pool 0.192) the assay gave IR 0.168; LM 0.00742; Sys 0.00760.
With GGAAACCGCUGCCAC (pool 0.176) the assay gave IR 0.0851; LM 0.00539; Sys 0.
With GGAAACCGUGCCAGC (pool 0.336) the assay gave IR 0.193; LM 0.0208; Sys 0.
With GGAAACCGGCAAAAC (pool 0.144) the assay gave IR 0.0904; LM 0.0256; Sys 0.00537.

The measurements come from Wu et al. 2024 (doi:10.1371/journal.ppat.1012142).